The results in this text go back to PMC9837764 (Nature Communications, 2023).

The subject of this assay is SARS-CoV-2. Briefly: Virus passage under drug and genome sequencing (mutation profile). As to conditions: four passages in Calu-3, drug at 5 mM; samples #1-#4.

Regarding `CC(C)C(=O)OC[C@H]1O[C@@H](n2ccc(NO)nc2=O)[C@H](O)[C@@H]1O` [MK-4482, molnupiravir, reference compound], the “Mutations C:C (Fig2F source data)” value was determined as 0.0 and the “Mutations T:T (Fig2F source data)” value was 0.0.
